Test results reported in patent US20240301038A1.

Target: SARS-CoV-2 native Spike (S) trimer (Acro Biosystems) (SARS-CoV-2) (UniProt P0DTC2)
Experiment: ELISA on spike trimer

In the case of AB-009649 (antibody), the OD (450 nm) is reported as 0.155 OD (450 nm).
